Measurements from publication PMC12781872.
For at least one entry, the source does not settle the construct or the ends of the probe. At least one verdict was read from the data and is not stated in words by the source.

What follows are sequences tested on RNAP core (alpha2 beta beta' omega) + sigmaA (assay: EMSA). Settings: holoenzyme; recombinant protein; label: SYBR Gold post-stain.

Sequence | binding result
TTCGGCCCGGCCGACGACTGGTTCAAGGGATTCACCCCGGCCGCCGAGGT (double strand) [Msm hsp20 +151] | binds
GCCAAGCGCTACACCGGTCGCGGGATGCCGTTGCTCGACCTGATCCAGGAGGGGAACCTGG (double strand) [Msm sigB +349] | binds
GTGTATCTGAACGGCATCGGCAAGACCGCATTGCTCAATGCCGCAGACGAAGTAGAACTCGC (double strand) [Msm sigB +130] | binds
CGAGAAGACGAGAAAGGGAGGCACAACGATGAGCACGCTGATGAAGACG (double strand) [Msm hsp20 +48] | binds
CCGTCATGGCAAATGCCACCACAAGCCGCGTTGACACCGATCTGGATGCCCAAAGCCCGG (double strand) [Msm sigB +53] | binds
